Results published in ChEMBL document CHEMBL3621085, “Tetrazole regioisomers in the development of nitro group-containing antitubercular agents” (Medchemcomm, 2015).
Converted amounts (≈) assume the structure as drawn. The source made the active and inactive calls. The rule behind the calls is not given here.

Key:
[1] = test system: Mycobacterium tuberculosis; assay: Antimycobacterial activity against Mycobacterium tuberculosis My 331/88 after 14 days by micromethod; format: functional
Mycobacterium avium [2] = assay: Antimycobacterial activity against Mycobacterium avium My 330/88 after 14 days by micromethod; format: functional
[3] = test system: Mycobacterium tuberculosis; assay: Antimycobacterial activity against Mycobacterium tuberculosis My 331/88 after 21 days by micromethod; format: functional
Mycobacterium avium [4] = assay: Antimycobacterial activity against Mycobacterium avium My 330/88 after 21 days by micromethod; format: functional
Mycobacterium kansasii [5] = assay: Antimycobacterial activity against Mycobacterium kansasii My 235/80 after 7 days by micromethod; format: functional
Mycobacterium kansasii [6] = assay: Antimycobacterial activity against Mycobacterium kansasii My 235/80 after 14 days by micromethod; format: functional
Mycobacterium kansasii [7] = assay: Antimycobacterial activity against Mycobacterium kansasii My 235/80 after 21 days by micromethod; format: functional
Mycobacterium kansasii [8] = assay: Antimycobacterial activity against Mycobacterium kansasii 6509/96 after 7 days by micromethod; format: functional
Mycobacterium kansasii [9] = assay: Antimycobacterial activity against Mycobacterium kansasii 6509/96 after 14 days by micromethod; format: functional
Mycobacterium kansasii [10] = assay: Antimycobacterial activity against Mycobacterium kansasii 6509/96 after 21 days by micromethod; format: functional
Staphylococcus aureus [11] = assay: Antibacterial activity against Staphylococcus aureus ATCC 6538 after 24 to 48 hrs by broth micro dilution method; format: functional, organism-based
Staphylococcus aureus [12] = assay: Antibacterial activity against methicillin-resistant Staphylococcus aureus H 5996/08 after 24 to 48 hrs by broth micro dilution method; format: functional, organism-based
[13] = test system: Staphylococcus epidermidis; assay: Antibacterial activity against Staphylococcus epidermidis H 6966/08 after 24 to 48 hrs by broth micro dilution method; format: functional, organism-based
Enterococcus faecalis = assay: Antibacterial activity against Enterococcus faecalis J 14365/08 after 24 to 48 hrs by broth micro dilution method; format: functional, organism-based
Escherichia coli = assay: Antibacterial activity against Escherichia coli ATCC 8739 after 24 to 48 hrs by broth micro dilution method; format: functional, organism-based
Klebsiella pneumoniae [14] = assay: Antibacterial activity against Klebsiella pneumoniae D 11750/08 after 24 to 48 hrs by broth micro dilution method; format: functional, organism-based
Klebsiella pneumoniae [15] = assay: Antibacterial activity against Klebsiella pneumoniae J 14368/08 after 24 to 48 hrs by broth micro dilution method; format: functional, organism-based
Klebsiella pneumoniae [16] = assay: Antibacterial activity against ESBL positive Klebsiella pneumoniae J 14368/08 after 24 to 48 hrs by broth micro dilution method; format: functional, organism-based
Pseudomonas aeruginosa = assay: Antibacterial activity against Pseudomonas aeruginosa ATCC 9027 after 24 to 48 hrs by broth micro dilution method; format: functional, organism-based
Candida albicans = assay: Antifungal activity against Candida albicans ATCC 44859 after 24 to 48 hrs by broth micro dilution method; format: functional, organism-based
Candida tropicalis = assay: Antifungal activity against Candida tropicalis 156 after 24 to 48 hrs by broth micro dilution method; format: functional, organism-based
Pichia kudriavzevii = assay: Antifungal activity against Candida krusei E28 after 24 to 48 hrs by broth micro dilution method; format: functional, organism-based
Nakaseomyces glabratus = assay: Antifungal activity against Candida glabrata 20/I after 24 to 48 hrs by broth micro dilution method; format: functional, organism-based
Trichosporon asahii = assay: Antifungal activity against Trichosporon asahii 1188 after 24 to 48 hrs by broth micro dilution method; format: functional, organism-based
Aspergillus fumigatus = assay: Antifungal activity against Aspergillus fumigatus 2318 after 24 to 48 hrs by broth micro dilution method; format: functional, organism-based
Lichtheimia corymbifera = assay: Antifungal activity against Absidia corymbifera 272 after 24 to 48 hrs by broth micro dilution method; format: functional, organism-based
[17] = test system: Trichophyton mentagrophytes; assay: Antifungal activity against Trichophyton mentagrophytes 445 after 72 to 120 hrs by broth micro dilution method; format: functional, organism-based

## O=[N+]([O-])c1cc(CSc2nnn(Cc3cc([N+](=O)[O-])cc([N+](=O)[O-])c3)n2)cc([N+](=O)[O-])c1
[1]
  MIC: 1 µM (≈ 0.462 µg/mL)
Mycobacterium avium [2]
  MIC: 250 µM (≈ 116 µg/mL)
[3]
  MIC: 2 µM (≈ 0.925 µg/mL)
Mycobacterium avium [4]
  MIC: 250 µM (≈ 116 µg/mL)
Mycobacterium kansasii [5]
  MIC: 1 µM (≈ 0.462 µg/mL)
Mycobacterium kansasii [6]
  MIC: 2 µM (≈ 0.925 µg/mL)
Mycobacterium kansasii [7]
  MIC: 2 µM (≈ 0.925 µg/mL)
Mycobacterium kansasii [8]
  MIC: 2 µM (≈ 0.925 µg/mL)
Mycobacterium kansasii [9]
  MIC: 4 µM (≈ 1.85 µg/mL)
Mycobacterium kansasii [10]
  MIC: 8 µM (≈ 3.7 µg/mL)
Staphylococcus aureus [11]
  Activity: inactive
Staphylococcus aureus [12]
  Activity: inactive
[13]
  Activity: inactive
Enterococcus faecalis
  Activity: inactive
Escherichia coli
  Activity: inactive
Klebsiella pneumoniae [14]
  Activity: inactive
Klebsiella pneumoniae [15]
  Activity: inactive
Klebsiella pneumoniae [16]
  Activity: inactive
Pseudomonas aeruginosa
  Activity: inactive
Candida albicans
  Activity: inactive
Candida tropicalis
  Activity: inactive
Pichia kudriavzevii
  Activity: inactive
Nakaseomyces glabratus
  Activity: inactive
Trichosporon asahii
  Activity: inactive
Aspergillus fumigatus
  Activity: inactive
Lichtheimia corymbifera
  Activity: inactive
[17]
  Activity: inactive
